System: mildew, and anthracnose
Experiment: Fungicide activity of Geraniol oil
Conditions: used at 500 to 4,000 ppm

`CC(C)=CCC/C(C)=C/CO` [Geraniol, 3,7-dimethyl-2,6-octadien-1-ol] was tested. Which “fungicidal control and plant phytotoxicity” value did it give?
Its value is “superior fungicidal control was demonstrated without plant phytotoxicity”.

Source: US20250248397A1, “CHITOSAN ENCAPSULATION OF ABSOLUTE (ESSENTIAL) ROSEMARY, PEPPERMINT, AND COTTONSEED OILS” (GroPro Corporation, priority 2024, published 2025)
